Compound potency records, mixed from different reports. Data source: NIAID ChemDB in PubChem.

Common to all: whole-cell or culture tests; agent: HIV-1

ECn: concentration that inhibits the pathogen or its effect by n%. Blank or dashed fields: not listed here. a–b is a range or a potency band. Rows are shuffled and stem from different studies.

SMILES | cells | strain | conditions | mutations | read-out | read by | value
COc1cc2ccnc3c2c(c1OC(=O)c1ccc(C(C)(C)C)cc1)N(C)C=C3 |  |  |  |  | EC50 |  | 3.7 µM
CCO[C@H]1c2cc(O)c(OC)c(OC)c2-c2c(cc(O)c(OC)c2OC)C[C@H](C)[C@@H]1C | C8166 |  |  |  | EC50 | cytopathic effect | 3.47 µg/mL
Cc1cc2c(cc1Cl)SC(C(=O)c1ccc([N+](=O)[O-])cc1)=NS2(=O)=O | CEM |  |  |  | EC50 | cytopathic effect / XTT | 52.5 µM
CC[C@@H]1COC[C@@H](N(C)C(=O)C(=O)N(C)C)c2nc(C(=O)NCc3ccc(F)cc3)c(O)c(=O)n21 | HeLa P4-2 |  |  | N155H | EC50 | single cycle | 0.013 µM
COc1cc2c(c3oc(=O)c(C)c(C)c13)[C@@H](OC(=O)C13CCC(C)(C(=O)O1)C3(C)C)[C@@H](OC(=O)C13CCC(C)(C(=O)O1)C3(C)C)C(C)(C)O2 | H9 | IIIB |  |  | EC50 | p24 | 1.95 µM
O=C(C1=NS(=O)(=O)c2ccc(Cl)cc2S1)c1ccc(Cl)cc1 | CEM |  |  |  | EC50 | cytopathic effect / XTT | 72.7 µM
Cc1c(COC(N)=O)c(=O)oc2c3c(ccc12)OC(C)(C)[C@H](OC(=O)C12CCC(C)(C(=O)O1)C2(C)C)[C@@H]3OC(=O)C12CCC(C)(C(=O)O1)C2(C)C | H9 | IIIB |  |  | EC50 | p24 | 0.353 µM
CCC(C)C(NC(=O)c1ccccc1SSc1ccccc1C(=O)NC(C(=O)O)C(C)CC)C(=O)O | Monocytes/macrophages | ADA |  |  | EC50 | p24 | 35 µM
Cc1cc(CNC(=O)c2nc3n(c(=O)c2O)CC(C)(C)CCC3N(C)C(=O)C(=O)N(C)C)ccc1F | HeLa P4-2 |  |  | Q148R | EC50 | single cycle | 0.002 µM
NC(=O)NO | H9 |  |  |  | EC50 | p24 | <200 µM
Cc1cc(-c2ccc(C(F)(F)F)cn2)[nH]c1C(=O)NC(C)(CCN)c1nc(CO)cs1 | TZM-bl | HXB2 | pseudotyped |  | EC50 | luciferase | 2.6 µM
CC(C)C#C[C@]1(C(F)(F)F)OCC(=O)Nc2ccc(Cl)cc21 |  |  |  | RT-K103N | EC50 |  | <0.784 µM
CC[C@H]1COC[C@@H](N(C)C(=O)C(=O)N(C)C)c2nc(C(=O)NCc3ccc(F)cc3)c(O)c(=O)n21 | HeLa P4-2 |  |  | E92Q | EC50 | single cycle | 0.002 µM
Cc1cc(C)cc(C[C@@H]2[C@H](O)[C@@H](O)[C@@H](Cc3ccccc3)N(Cc3ccc4[nH]nc(N)c4c3)C(=O)N2Cc2ccccc2)c1 |  | RF |  |  | EC50 |  | <0.05 µM
COc1cc2c(c(O)c1OC)-c1c(cc(OC(C)=O)c(OC)c1O)C[C@@H](C)[C@@H](C)C2 | C8166 |  |  |  | EC50 | cytopathic effect | 1.42 µg/mL
Cc1cn(CC(=O)Nc2ccccn2)c(=O)[nH]c1=O | TZM-bl | VB59 |  |  | EC50 | luciferase | 23.26 µM
CCCc1c(OC2CCCCC2)c2cc(Cl)ccc2[nH]c1=O | HeLa + HeLa-MAGI | NNRTI-resistant (RT K103N Y181C) |  | RT-K103N Y181C | EC50 | β-galactosidase | >2 µM
CC(C)CN(C[C@@H](O)[C@H](Cc1ccccc1)NC(=O)O[C@H]1CO[C@H]2OCC[C@H]21)S(=O)(=O)c1ccc2nc(NC(=O)OCCN(C)C)[nH]c2c1 | MT-4 | LAI WT |  |  | EC50 | cytopathic effect / MTT | 0.398 µM
NS(=O)(=O)c1ccc(NC(=O)c2ccccc2SSc2ccccc2C(=O)Nc2ccc(S(N)(=O)=O)cc2)cc1 | Monocytes/macrophages | ADA |  |  | EC50 | p24 | 5.8 µM
CC(C)(N)CC(NC(=O)c1ccc(-c2ccc(C(F)(F)F)cn2)[nH]1)c1nc(CO)cs1 | TZM-bl |  | pseudotyped |  | EC50 | luciferase | 1.73 µM
O=C(Cn1ccc(=O)[nH]c1=O)Nc1ccc(Br)cn1 | TZM-bl | VB59 |  |  | EC50 | luciferase | 134 µM
CC[C@@H]1O[C@](C#CC2CC2)(C(F)(F)F)c2cc(Cl)ccc2NC1=O |  |  |  | RT-K103N | EC50 |  | <0.139 µM
Cc1cc(Cl)cc2c1S(=O)(=O)N=C(C(=O)c1ccc3ccccc3c1)S2 | CEM |  |  |  | EC50 | cytopathic effect / XTT | >200 µM
COc1ccnc2[nH]cc(C(=O)C(=O)N3C4CC3CN(C(=O)c3ccccc3)C4)c12 | TZM-bl | PVO |  |  | EC90 | luciferase | >250 µM
O=C(CCCCCCCCCCC(=O)Nc1cc(S(=O)(=O)O)c2cccc(S(=O)(=O)O)c2c1)Nc1cc(S(=O)(=O)O)c2cccc(S(=O)(=O)O)c2c1 | MT-4 | IIIB |  |  | EC50 | cytopathic effect / MTT | 46 µM
C[C@@H]1O[C@](/C=C/C2CC2)(C(F)(F)F)c2cc(Cl)ccc2NC1=O | MT-2 | RF |  |  | EC50 |  | <0.0025 µM
CCOCn1c(Cc2cc(OC)cc(OC)c2)c(C(C)C)c(=O)[nH]c1=O | MT-4 | A17 |  | K103N + Y181C | EC50 | MTT | 90 µM
CN(C)C1=C(C#N)/C(=C2/C(C#N)=C(N(C)C)N(c3ccc([N+](=O)[O-])cc3)c3c2n(C)c2ccccc32)c2c(c3ccccc3n2C)N1c1ccc([N+](=O)[O-])cc1 | CEM + CEM-SS | 6R AZT-resistant (RT D67N K70R T215Y K219Q) |  | RT-D67N K70R T215Y K219Q | EC50 | cytopathic effect / XTT | 12–16.6 µM
C[C@H]1O[C@](C#CC2CC2)(C(F)(F)F)c2cc(Cl)ccc2NC1=O |  |  |  | RT-K103N | EC50 |  | <1.13 µM
CCc1c(Cc2cc(OC)cc(OC)c2)n(COCCOc2ccccc2)c(=O)[nH]c1=O | MT-4 | IIIB |  | Efavirenz-resistant (K103R + V179D + P225H) | EC50 | MTT | >41 µM
O=C(CCC(=O)n1cnc2ccccc21)n1cnc2ccccc21 | TZM-bl | UG070 |  |  | EC50 | luciferase | 5.28 µM
O=C1CO[C@](C#CC2CC2)(C(F)(F)F)c2cc(Cl)ccc2N1 | MT-2 | RF |  |  | EC50 |  | <0.0091 µM
CC(C)CN(C[C@@H](O)[C@H](Cc1ccccc1)NC(=O)O[C@H]1CO[C@H]2OCC[C@H]21)S(=O)(=O)c1ccc2nc(NCCN3CCCC3)n(CCc3ccccc3)c2c1 | MT-4 | LAI WT |  |  | EC50 | cytopathic effect / MTT | 0.398 µM
Nc1ncnc2c1ncn2[C@@H]1C=C[C@H](CO)[C@H]1CO | MT-4 | MN |  |  | EC50 | XTT | 1.9 µg/mL
CCc1c(Cc2ccccc2)n(COCCOc2ccccc2)c(=O)[nH]c1=O | MT-4 | IIIB |  |  | EC50 | MTT | 0.07 µM
Cc1cc(Cl)cc2c1S(=O)(=O)N=C(C(=O)c1ccc(Cl)cc1)S2 | CEM |  |  |  | EC50 | cytopathic effect / XTT | 256.7 µM
COc1cc2ccnc3c2c(c1OC(=O)c1cccc(F)c1F)N(C)C=C3 |  |  |  |  | EC50 |  | 37.7 µM
COc1ccnc2[nH]cc(C(=O)C(=O)N3C4CCC3CN(C(=O)c3ccccc3)C4)c12 | TZM-bl | ZM214 |  |  | EC50 | luciferase | 1.1 µM
Nc1ncnc2c1ncn2[C@@H]1O[C@H](OCP(=O)(O)O)C=C1F | MT-2 |  |  | RT-K65R | EC50 | cytopathic effect | 14.76 µM
O=C(Cn1ccc(=O)[nH]c1=O)Nc1ccc([N+](=O)[O-])cn1 | TZM-bl | UG070 |  |  | EC50 | luciferase | 2.4 µM
CC(=O)Oc1cc(S(=O)(=O)O)cc2cc(S(=O)(=O)O)cc(OC(C)=O)c12 | MT-4 | HE |  |  | EC50 | cytopathic effect / MTT | >500 µM
CCOCn1c(Cc2cc(OC)cc(OC)c2)c(CC)c(=O)[nH]c1=O | MT-4 | N119 |  | Y181C | EC50 | MTT | 30.5 µM
CCC(O)(c1ccc(C)cc1)c1c(C)c(=O)[nH]c(=O)n1COCc1ccccc1 | MT-4 | IIIB |  |  | EC50 | MTT | >6.82 µM
CO[C@]1(C)CC[C@@H](N(C)C(=O)C(=O)N(C)C)c2nc(C(=O)NCc3ccc(F)c(C)c3)c(O)c(=O)n2C1 | HeLa P4-2 |  |  | Q148R | EC50 | single cycle | 0.001 µM
Cc1c(OCC2CCC2)c2cc(F)ccc2[nH]c1=O | HeLa + HeLa-MAGI | NNRTI-resistant (RT K103N G190A) |  | RT-K103N G190A | EC50 | β-galactosidase | >2 µM
CN[C@@H]1[C@H](O[C@@H]2OC[C@@H](O)[C@H](O)[C@H]2O)[C@@H](O)[C@H](O[C@H]2c3cc(C)c(C(=O)N[C@H](C)C(=O)O)c(O)c3-c3c(cc4c(c3O)C(=O)c3cc(OC)cc(O)c3C4=O)[C@@H]2O)O[C@@H]1C | MT-4 | NL4-3 |  |  | EC50 | MTS | 3.3 µM
COc1cc2ccnc3c2c(c1OC(=O)c1ccc(OC(F)(F)F)cc1)N(C)C=C3 |  |  |  |  | EC50 |  | 2.3 µM
Cc1cccc(C)c1OCC(=O)N[C@@H](Cc1ccccc1)[C@H](O)CN(CC(C)C)S(=O)(=O)c1ccc2ncn(CC(C)C)c2c1 | MT-4 | LAI WT |  |  | EC50 | cytopathic effect / MTT | 0.501 µM
COc1ccc(C(O)(c2c(C)c(=O)[nH]c(=O)n2COCc2ccccc2)C(C)C)cc1 | MT-4 | IIIB |  |  | EC50 | MTT | >90.18 µM
COc1cc(-c2ccc(C(=O)NC(CCN)c3nc(CO)cs3)[nH]2)ccn1 | TZM-bl | HXB2 | pseudotyped |  | EC50 | luciferase | >11 µM
Cc1ccc(Sc2c([N+](=O)[O-])ncn2CC2=CC(=O)C(=O)CN2C)cc1 | MT-4 | IIIB |  |  | EC90 | MTT | >29.8 µM
CC(CCN)(NC(=O)c1ccc(-c2ccc(C(F)(F)F)cn2)[nH]1)c1nc(CO)cs1 | TZM-bl | HXB2 | pseudotyped |  | EC50 | luciferase | 5.1 µM
CCCc1cc(=O)oc2c3c(c4c(c12)OC(C)(C)CC4)O[C@@H](C)[C@H](C)[C@@H]3O | CEM + CEM-SS | NL4-3 |  | RT-Y188C | EC50 | cytopathic effect / XTT | 1 µM
Cc1c(CBr)c(=O)oc2c3c(ccc12)OC(C)(C)[C@H](OC(=O)C12CCC(C)(C(=O)O1)C2(C)C)[C@@H]3OC(=O)C12CCC(C)(C(=O)O1)C2(C)C | H9 | IIIB |  |  | EC50 | p24 | 0.00741 µM
CCc1c(Cc2cc(C)cc(C)c2)n(COCCOc2ccccc2)c(=O)[nH]c1=O | MT-4 | A17 |  | K103N + Y181C | EC50 | MTT | 6.5 µM
CN1CC(=O)C(=O)C=C1Cn1cnc([N+](=O)[O-])c1Nc1cc(Cl)cc(Cl)c1 | MT-4 | IIIB |  |  | EC90 | MTT | >7.3 µM
COc1cc2ccnc3c2c(c1OC(=O)N1CCCC1)N(C)C=C3 |  |  |  |  | EC50 |  | >100 µM
CC(=O)Nc1nc2ccc(S(=O)(=O)N(CC(C)C)C[C@@H](O)[C@H](Cc3ccccc3)NC(=O)O[C@H]3CCOC3)cc2[nH]1 | MT-4 | LAI WT |  |  | EC50 | cytopathic effect / MTT | 0.05 µM
CCc1c(Cc2cc(OC)cc(OC)c2)[nH]c(=O)[nH]c1=O | MT-4 | IIIB |  | Efavirenz-resistant (K103R + V179D + P225H) | EC50 | MTT | >100 µM
O=C(CCCCCCCCCCC(=O)Nc1cc(S(=O)(=O)O)cc2cc(S(=O)(=O)O)cc(O)c12)Nc1cc(S(=O)(=O)O)cc2cc(S(=O)(=O)O)cc(O)c12 | MT-4 | IIIB |  |  | EC50 | MTT | 42 µM
CN1CC(=O)C(=O)C=C1Cn1cnc([N+](=O)[O-])c1Nc1ccccc1 | MT-4 | IIIB |  |  | EC50 | MTT | >250 µM
COc1cc(Cc2[nH]c(=O)[nH]c(=O)c2C(C)C)cc(OC)c1 | MT-4 | IIIB |  | Efavirenz-resistant (K103R + V179D + P225H) | EC50 | MTT | >100 µM
CC(=O)N1CCC(C(=O)N(CCCN2CCC(Cc3ccc(C(N)=O)cc3)CC2)c2ccc(C)c(Cl)c2)CC1 | PBMC | HNK Clinical isolates |  |  | EC50 | p24 | 0.0017 µM
CC(C)c1c(C(C)c2ccc(F)cc2)n(COCc2ccccc2)c(=O)[nH]c1=O | MT-4 | IIIB |  | F227L + V106A | EC50 | MTT | >33.73 µM
CN1CC(=O)C(=O)C=C1Cn1cnc([N+](=O)[O-])c1Nc1ccc(Cl)cc1 | MT-4 | IIIB |  |  | EC50 | MTT | >250 µM
Cc1cc2c(c3oc(=O)cc(C)c13)[C@@H](OC(=O)C13CCC(C)(C(=O)O1)C3(C)C)[C@@H](OC(=O)C13CCC(C)(C(=O)O1)C3(C)C)C(C)(C)O2 | H9 | IIIB |  |  | EC50 | p24 | 0.12 µM
CCC#C[C@]1(C(F)(F)F)OCC(=O)Nc2ccc(Cl)cc21 |  |  |  | RT-K103N | EC50 |  | <1.763 µM
Cc1c(C(C)(O)c2ccccc2Cl)n(COCc2ccccc2)c(=O)[nH]c1=O | MT-4 | IIIB |  |  | EC50 | MTT | 34.46 µM

8 of the rows above, restated:

SMILES,cells,strain,conditions,mutations,read-out,read by,value
CCOCn1c(Cc2cc(OC)cc(OC)c2)c(C(C)C)c(=O)[nH]c1=O,MT-4,A17,,K103N + Y181C,EC50,MTT,90 µM
CCc1c(Cc2cc(OC)cc(OC)c2)n(COCCOc2ccccc2)c(=O)[nH]c1=O,MT-4,IIIB,,Efavirenz-resistant (K103R + V179D + P225H),EC50,MTT,>41 µM
COc1cc2ccnc3c2c(c1OC(=O)c1ccc(C(C)(C)C)cc1)N(C)C=C3,,,,,EC50,,3.7 µM
CC(C)CN(C[C@@H](O)[C@H](Cc1ccccc1)NC(=O)O[C@H]1CO[C@H]2OCC[C@H]21)S(=O)(=O)c1ccc2nc(NC(=O)OCCN(C)C)[nH]c2c1,MT-4,LAI WT,,,EC50,cytopathic effect / MTT,0.398 µM
COc1ccnc2[nH]cc(C(=O)C(=O)N3C4CCC3CN(C(=O)c3ccccc3)C4)c12,TZM-bl,ZM214,,,EC50,luciferase,1.1 µM
CCOCn1c(Cc2cc(OC)cc(OC)c2)c(CC)c(=O)[nH]c1=O,MT-4,N119,,Y181C,EC50,MTT,30.5 µM
O=C(C1=NS(=O)(=O)c2ccc(Cl)cc2S1)c1ccc(Cl)cc1,CEM,,,,EC50,cytopathic effect / XTT,72.7 µM
Cc1cc2c(c3oc(=O)cc(C)c13)[C@@H](OC(=O)C13CCC(C)(C(=O)O1)C3(C)C)[C@@H](OC(=O)C13CCC(C)(C(=O)O1)C3(C)C)C(C)(C)O2,H9,IIIB,,,EC50,p24,0.12 µM